In publication PMC3806850, “The Tumor Targeted Superantigen ABR-217620 Selectively Engages TRBV7-9 and Exploits TCR-pMHC Affinity Mimicry in Mediating T Cell Cytotoxicity” (PLoS ONE, 2013):
pKd: −log10 of the molar value.

Experiments:
[1] = molecular target: 5T4Fab(V18)-SEA (not stated | not stated (staphylococcal)) (UniProt P0A0L2); assay: SPR
[2] = molecular target: C215Fab-SEA (not stated | not stated (staphylococcal)) (UniProt P0A0L2); assay: SPR

Question: Which results are given for “soluble TCR reagent TRBV7-9 (disulfide-linked αβ-heterodimer)”?
Answer: pKd [1]: 6.14; pKd [2]: 5.92
